Experimental data published in patent publication US20240122867A1, “CORONAL PROTEIN-COATED NANOPARTICLES AND USES THEREOF” (UNIVERSITY OF CENTRAL FLORIDA RESEARCH FOUNDATION, INC., priority 2021, published 2024).

B1: Lumican (protein, UniProt P51885 19-338, looked up)
Lumican: QYYDYDIPLFMYGQISPNCAPECNCPHSYPTAMYCDDLKLKSVPMVPPGIKYLYLRNNQIDHIDEKAFENVTDLQWLILDHNLLENSKIKGKVFSKLKQLKKLHINYNNLTESVGPLPKSLQDLQLTNNKISKLGSFDGLVNLTFIYLQHNQLKEDAVSASLKGLKSLEYLDLSFNQMSKLPAGLPTSLLTLYLDNNKISNIPDEYFKRFTGLQYLRLSHNELADSGVPGNSFNISSLLELDLSYNKLKSIPTVNENLENYYLEVNELEKFDVKSFCKILGPLSYSKIKHLRLDGNPLTQSSLPPDMYECLRVANEITVN
B2: 55 kDa erythrocyte membrane protein (protein, UniProt P70290 2-466, looked up)
55 kDa erythrocyte membrane …: TLKSSEGEGGNSMRTALSDLYLEHLLQKRNRPETSLNQSNVTTEDMYTNGSPAPGSPAHAKGQEARRVRLIQFEKITEEPMGITLKLNEKQSCTVARILHGGMIHRQGSLHVGDEILEINGTNVTNHSVDQLQKAMKETKGMISLKVIANQQSRLPALQMFMRAQFDYDPQKDNLIPCKEAGLKFVTGDIIQIINKDDSNWWQGRVEGSSKESAGLIPSPELQEWRVASVAHSAPSEAPSCSPFGKKKKCKDKYLAKHSSIFDQLDVVSYEEVVRLPAFKRKTLVLIGASGVGRSHIKNGLLSHNPEKFAYPAPYTTRPPKKSEEDGKEYHFISTEEMTKNISANEFLEFGSYQGNMFGTKFETVHQIHKQDKIAILDIEPQTLKTVRTAELSPFIVFIAPTDQGTQTEALQQLQKDSEAIRSQYAHYFDLSLVNNSVDETLKKLQEAFDQACSSPQWVPVSWVY
B3: C-reactive protein (protein, UniProt P14847 20-225, looked up)
C-reactive protein: HEDMFKKAFVFPKESDTSYVSLEAESKKPLNTFTVCLHFYTALSTVRSFSVFSYATKKNSNDILIFWNKDKQYTFGVGGAEVRFMVSEIPEAPTHICASWESATGIVEFWIDGKPKVRKSLHKGYTVGPDASIILGQEQDSYGGDFDAKQSLVGDIGDVNMWDFVLSPEQISTVYVGGTLSPNVLNWRALNYKAQGDVFIKPQLWS
B4: Coagulation factor IX (protein, UniProt P16294 47-471, looked up)
Coagulation factor IX: YNSGKLEEFVRGNLERECIEERCSFEEAREVFENTEKTTEFWKQYVDGDQCESNPCLNGGICKDDISSYECWCQVGFEGRNCELDATCNIKNGRCKQFCKNSPDNKVICSCTEGYQLAEDQKSCEPTVPFPCGRASISYSSKKITRAETVFSNMDYENSTEAVFIQDDITDGAILNNVTESSESLNDFTRVVGGENAKPGQIPWQVILNGEIEAFCGGAIINEKWIVTAAHCLKPGDKIEVVAGEYNIDKKEDTEQRRNVIRTIPHHQYNATINKYSHDIALLELDKPLILNSYVTPICVANREYTNIFLKFGSGYVSGWGKVFNKGRQASILQYLRVPLVDRATCLRSTTFTIYNNMFCAGYREGGKDSCEGDSGGPHVTEVEGTSFLTGIISWGEECAMKGKYGIYTKVSRYVNWIKEKTKLT
B5: Peroxiredoxin-2 (protein, UniProt Q61171 2-198, looked up)
Peroxiredoxin-2: ASGNAQIGKSAPDFTATAVVDGAFKEIKLSDYRGKYVVLFFYPLDFTFVCPTEIIAFSDHAEDFRKLGCEVLGVSVDSQFTHLAWINTPRKEGGLGPLNIPLLADVTKSLSQNYGVLKNDEGIAYRGLFIIDAKGVLRQITVNDLPVGRSVDEALRLVQAFQYTDEHGEVCPAGWKPGSDTIKPNVDDSKEYFSKHN
B6: Ficolin-1 (protein, UniProt O70165 18-334, looked up)
Ficolin-1: SQALGQERGACPDVKVVGLGAQDKVVVIQSCPGFPGPPGPKGEPGSPAGRGERGFQGSPGKMGPAGSKGEPGTMGPPGVKGEKGDTGAAPSLGEKELGDTLCQRGPRSCKDLLTRGIFLTGWYTIHLPDCRPLTVLCDMDVDGGGWTVFQRRVDGSIDFFRDWDSYKRGFGNLGTEFWLGNDYLHLLTANGNQELRVDLQDFQGKGSYAKYSSFQVSEEQEKYKLTLGQFLEGTAGDSLTKHNNMSFTTHDQDNDANSMNCAALFHGAWWYHNCHQSNLNGRYLSGSHESYADGINWGTGQGHHYSYKVAEMKIRAS
B7: Ig lambda-2 chain C region (protein, UniProt P01844 1-104, looked up)
Ig lambda-2 chain C region: QPKSTPTLTVFPPSSEELKENKATLVCLISNFSPSGVTVAWKANGTPITQGVDTSNPTKEGNKFMASSFLHLTSDQWRSHNSFTCQVTHEGDTVEKSLSPAECL
B8: Plasminogen (protein, UniProt P20918 20-812, looked up)
Plasminogen: DSLDGYISTQGASLFSLTKKQLAAGGVSDCLAKCEGETDFVCRSFQYHSKEQQCVIMAENSKTSSIIRMRDVILFEKRVYLSECKTGIGNGYRGTMSRTKSGVACQKWGATFPHVPNYSPSTHPNEGLEENYCRNPDNDEQGPWCYTTDPDKRYDYCNIPECEEECMYCSGEKYEGKISKTMSGLDCQAWDSQSPHAHGYIPAKFPSKNLKMNYCRNPDGEPRPWCFTTDPTKRWEYCDIPRCTTPPPPPSPTYQCLKGRGENYRGTVSVTVSGKTCQRWSEQTPHRHNRTPENFPCKNLEENYCRNPDGETAPWCYTTDSQLRWEYCEIPSCESSASPDQSDSSVPPEEQTPVVQECYQSDGQSYRGTSSTTITGKKCQSWAAMFPHRHSKTPENFPDAGLEMNYCRNPDGDKGPWCYTTDPSVRWEYCNLKRCSETGGSVVELPTVSQEPSGPSDSETDCMYGNGKDYRGKTAVTAAGTPCQGWAAQEPHRHSIFTPQTNPRAGLEKNYCRNPDGDVNGPWCYTTNPRKLYDYCDIPLCASASSFECGKPQVEPKKCPGRVVGGCVANPHSWPWQISLRTRFTGQHFCGGTLIAPEWVLTAAHCLEKSSRPEFYKVILGAHEEYIRGLDVQEISVAKLILEPNNRDIALLKLSRPATITDKVIPACLPSPNYMVADRTICYITGWGETQGTFGAGRLKEAQLPVIENKVCNRVEYLNNRVKSTELCAGQLAGGVDSCQGDSGGPLVCFEKDKYILQGVTSWGLGCARPNKPGVYVRVSRFVDWIEREMRNN
B9: Extracellular superoxide dismutase [Cu—Zn] (protein, UniProt O09164 25-251, looked up)
Extracellular superoxide …: SSFDLADRLDPVEKIDRLDLVEKIGDTHAKVLEIWMELGRRREVDAAEMHAICRVQPSATLPPDQPQITGLVLFRQLGPGSRLEAYFSLEGFPAEQNASNRAIHVHEFGDLSQGCDSTGPHYNPMEVPHPQHPGDFGNFVVRNGQLWRHRVGLTASLAGPHAILGRSVVVHAGEDDLGKGGNQASLQNGNAGRRLACCVVGTSSSAAWESQTKERKKRRRESECKTT
B10: Complement C1q subcomponent subunit C (protein, UniProt Q02105 30-246, looked up)
Complement C1q subcomponent …: SAGCYGIPGMPGMPGAPGKDGHDGLQGPKGEPGIPAVPGTRGPKGQKGEPGMPGHRGKNGPRGTSGLPGDPGPRGPPGEPGVEGRYKQKHQSVFTVTRQTTQYPEANALVRFNSVVTNPQGHYNPSTGKFTCEVPGLYYFVYYTSHTANLCVHLNLNLARVASFCDHMFNSKQVSSGGVLLRLQRGDEVWLSVNDYNGMVGIEGSNSVFSGFLLFPD
B11: Biotinidase (protein, UniProt Q8CIF4 22-520, looked up)
Biotinidase: VSSASQEHREAEYYVAAVYEHPSVLSPNPLELVSRQEALELMKQNLDVYEQQVMAAAQKGVQIIVFPEDGIHGFNFTRTSIYPFLDFMPSPKLVRWNPCLEPFRFNDTEVLQRLSCMAIKGGMFLVANLGTKQPCLSSDPGCPQDGRYQFNTNVVFSDNGTLVDRYRKHNLYFEAAFDTPANVDLITFDTPFAGKFGVFTCFDILFFDPAVRLLRDFEVKHIVYPTAWMNQLPLLAAIEIQKAFATAFGVNVLAANIHHPTLGMTGSGIHTPLKSFWYHDMDDPKGHLIIAQVATNPQGLTGTGNTTSEMDPSHRKFLKILSGDPYCEKDAQEVHCDEAAKWNVNVPPTFHSEMMYDNFTLVPVWGTEGHLQVCSNSLCCHLLYERPTLSKELYALGVFDGLHTVHGTYYIQTCALVKCGGLGFDTCGQEITEAEGLFDFHLWGNFSTLYIFPLFLTSGMTLDTPDQLGWENDHYFLRKRGLSSGLVTAALYGRLYERK
B12: Keratin, type II cytoskeletal 79 (protein, UniProt Q8VED5 1-531, looked up)
Keratin, type II cytoskeletal …: MRSSLSRQTFSTKGGFSSNSASGGGGSRMRTSYSSVTMSRGSGGGGGVRSGSSSGGFGSRSLYNLGGKNISVSMACGASSGRALGGFGSGAYVGLGASRQTFGPVCPPGGIQEVTVNQSLLTPLNVEIDPEIQRVRTQEREQIKTLNNKFASFIDKVRFLEQQNKVLETKWALLQEQSQNTGVARSLEPFFENYLSTLRRQLDTKQSERGRLDMELRNVQDNLEDFKNKYEDEINKRTALENEFVLLKKDVDAAYMGRMDLHGKVDSLTQEIDFLQQLFEMELSQVQTNVSDTNVILSMDNNRNLDLDSIIAEVKAQYELIAQKSRAEAESWYQTKYEELQVTAGKHGDSLRDTKNEIAELTRTTQRLQGEVDAAKKQCQQLQTAIAEAEQNGEMALKDAKKKLGDLDTALHQAKEDLARMLREYQDLVSVKLALDMEIATYRKLLESEESRMSGDCPSAISISVTGNSTSVCAGGTAGFGNGLSLGGAGGASKGGFGSSVSYGAAKGGQVSGGTSILRKTTTVKTSSRRY

These molecules were tested on coronal proteins on NPs. Conditions: HBPE-NPs incubated 1 h with IAV day 5 (V5) mouse sera, 20:1 NP:sera, centrifuged and washed.
Set-up: species or system mouse

Row | Molecule | V5 Sera_Nanoparticles Quantitative Value (Normalized Total Spectra)
1 | B1 | 2.1758
2 | B2 | 2.1758
3 | B3 | 2.1758
4 | B4 | 2.1758
5 | B5 | 2.1758
6 | B6 | 2.1758
7 | B7 | 2.1758
8 | B8 | 53.308
9 | B9 | 2.1758
10 | B10 | 2.1758
11 | B11 | 2.1758
12 | B12 | 1.0879

Same assay, conditions: IAV day 5 (V5) mouse sera alone, no NPs (sera-only control)

Row | Molecule | V5 Sera Alone (Control) Quantitative Value (Normalized Total Spectra)
13 | B1 | 0.9252
14 | B2 | 0
15 | B3 | 1.8505
16 | B4 | 0
17 | B5 | 0.9252
18 | B6 | 0
19 | B7 | 0
20 | B8 | 40.71
21 | B9 | 0
22 | B10 | 0
23 | B11 | 0
24 | B12 | 2.7757
